Compound potency records, mixed from different reports. Data source: NIAID ChemDB in PubChem.

All rows: cytotoxicity tests; cell line: MT-4; endpoint: CC50

Blank or dashed fields: not listed here. CCn: concentration that lowers growth or viability of the cells by n%. Conditions beyond the fields shown may differ between rows.

structure	read by	value
O=C(CCCCCNCc1ccccc1)Nc1ccn([C@H]2CS[C@@H](CO)O2)c(=O)n1	-	>50 µM
COc1ccc(C2(c3ccc(OC)cc3)OC(=O)c3cccc4cccc2c34)cc1	-	26 µM
Cc1c(Cc2c(Cl)cccc2Cl)nc(SC/C=C/c2ccc(N(C)C)cc2)[nH]c1=O	MTT	54.35 µM
C=CCOCn1c(Cc2ccccc2)c(CO)c(=O)[nH]c1=O	MTT	>100 µM
NC(=O)c1[nH]c2ccc(Cl)cc2c1S(=O)(=O)CCC(F)(F)F	microscopy	>10 µM
Nc1ncc2ncn(C[C@@H](CF)OCP(=O)(O)O)c2n1	-	>300 µM
CCc1c(Cc2c(Cl)cccc2Cl)nc(SC/C=C/c2ccc(OC)cc2)[nH]c1=O	MTT	0.19 µM
CCc1c(Cc2cccc(Cc3nc(SC(C)CC)[nH]c(=O)c3CC)c2)nc(SC(C)CC)[nH]c1=O	MTT	27 µM
Clc1ccc(-c2csc(N/N=C/c3ccccn3)n2)cc1	MTT	2.19 µM
CCc1c(Cc2ccccc2C)n(COCC#Cc2ccccc2)c(=O)[nH]c1=O	MTT	26 µM
COc1ccc(OC)c(CCNC(=S)Nc2nccs2)c1	-	86 µM
CC1=C(C(=O)Nc2ccccc2Cl)C2=NN=C(N)C2C(=O)N1	MTT	42.6 µg/mL
Cc1cc(C)cc(S(=O)(=O)c2c(C(=O)NS(=O)(=O)C(F)(F)F)[nH]c3ccc(Cl)cc23)c1	MTT	>253 µM
Cn1nncc1CN1CCn2c(nc(C(=O)NCc3ccc(F)cc3)c(O)c2=O)C1(C)C	microscopy	>1 µM
C/C(=N\Nc1nc(-c2ccc([N+](=O)[O-])cc2)cs1)c1ccc(Cl)c(Cl)c1	MTT	14.07 µM
O=C1NCc2c1ccnc2-c1cc(-c2ccc(F)c(OC(F)(F)F)c2)n(-c2cccc(Cl)c2)n1	resazurin	>3.3 µM
C[C@H]1CC[C@]2(CC(=O)N(C)C2)[C@H]2CN1C(=O)c1c(O)c(=O)c(C(=O)NCc3c(F)cc(F)cc3F)cn12	luminescence	50 µM
Cc1cn([C@H]2C[C@H](N=[N+]=[N-])[C@@H](CO)O2)c(=O)[nH]c1=O	MTT	>7.49 µM
CCOC(=O)C(CC)C(=O)Cc1cccc(Cc2[nH]c(=O)c(CC)c(O)c2CC)c1	MTT	100 µM
O=C1NCc2c1ccnc2-c1cc(-c2cccc(Cl)c2)n(-c2cccc(C(F)(F)F)c2)n1	resazurin	>3.3 µM
CCOC(=O)c1[nH]c2ccc(Cl)cc2c1S(=O)(=O)C1CCCCC1	microscopy	>10 µM
COc1ccc(CN2O[C@@]3(CC[C@H](C)N4C[C@H]3n3cc(C(=O)NCc5c(F)cc(F)cc5F)c(=O)c(O)c3C4=O)CC2=O)cc1	luminescence	50 µM
Nc1ncnc2c1ncn2[C@H]1C=C[C@@H](CO)[C@@H]1CO	-	>100 µg/mL
C[C@H](Cn1cnc2c(N)nc(N)nc21)OCP(=O)(O)O	-	>300 µM
CC1=NO[C@@]2(CC[C@H](C)N3C[C@H]2n2cc(C(=O)NCc4ccc(F)cc4F)c(=O)c(O)c2C3=O)C1=O	luminescence	50 µM
CCc1c(Cc2cc(C)cc(C)c2)n(COCC#Cc2cnccn2)c(=O)[nH]c1=O	MTT	30 µM
CC1=C(C(=O)Nc2ccc(F)cc2)C2=NN=C(N)C2C(=O)N1	MTT	83.9 µg/mL
CCc1c(Cc2ccccc2C)n(COC/C(Br)=C(\Br)c2ccccc2)c(=O)[nH]c1=O	MTT	26 µM
CC1=C(C(=O)Nc2ccc(C)cc2)C2=NN=C(N)C2C(=O)N1	MTT	>100 µg/mL
O=C(CCCCCNCCCCCNCc1ccccc1)Nc1ccn([C@H]2CS[C@@H](CO)O2)c(=O)n1	-	>50 µM
Nc1nc2c(ncn2C[C@H](CF)OCP(=O)(O)O)c(=O)[nH]1	-	>300 µM
C[C@H]1CC[C@@]2(CC(=O)N(C)C2)[C@H]2CN1C(=O)c1c(O)c(=O)c(C(=O)NCc3c(F)cc(F)cc3F)cn12	luminescence	50 µM
CCc1c(Cc2cc(C)cc(C)c2)n(COCc2cn(Cc3c(F)cccc3F)nn2)c(=O)[nH]c1=O	MTT	54 µM
CC1=NOC2(CC[C@H](C)N3C[C@H]2n2cc(C(=O)NCc4ccc(F)cc4F)c(=O)c(O)c2C3=O)N1N(C)C	luminescence	23.1 µM
C=CCOCn1c(Cc2ccccc2)c(CF)c(=O)[nH]c1=O	MTT	>100 µM
C[C@H]1CC[C@@]2(ON=C(CF)[C@@H]2O)[C@H]2CN1C(=O)c1c(O)c(=O)c(C(=O)NCc3c(F)cc(F)cc3F)cn12	luminescence	50 µM
N#Cc1ccc(-c2csc(N/N=C/c3ccc([N+](=O)[O-])cc3)n2)cc1	MTT	10.55 µM
CC1=NCC2(CC[C@H](C)N3C[C@H]2n2cc(C(=O)NCc4ccc(F)cc4F)c(=O)c(O)c2C3=O)O1	luminescence	50 µM
O=C1/C(=C\c2ccc(Cl)cc2)N(CCc2cccs2)C(=S)N1CCc1cccs1	MTT / turbidity	103 µg/mL
COc1ccc(/C=C/CSc2nc(Cc3c(F)cccc3F)c(C)c(=O)[nH]2)cc1	MTT	393 µM
NC(=O)c1cccn1S(=O)(=O)c1ccccc1N	MTT	>200 µM
CC1=C(C(=O)Nc2ccc(F)c(F)c2)C2=NN=C(N)C2C(=O)N1	MTT	97.1 µg/mL
Cc1cc(C)cc(S(=O)(=O)c2c(C(=O)N[C@@H]3CCN(CC(N)=O)C3)[nH]c3ccc(Cl)cc23)c1	MTT	31.02 µM
O=[N+]([O-])c1ccc(-c2csc(N/N=C/c3ccccc3O)n2)cc1	MTT	125 µM
Cn1cccc1CCNC(=S)Nc1nccs1	-	143 µM
CCc1c(Cc2cccc(Cc3[nH]c(=S)[nH]c(=O)c3CC)c2)[nH]c(=S)[nH]c1=O	MTT	>100 µM
O=C(CCCCCNCCCCCCNCc1ccccc1)Nc1ccn([C@H]2CS[C@@H](CO)O2)c(=O)n1	-	10 µM
O=C1NCc2c1cccc2-c1cc(-c2cc(Cl)cc(OC(F)F)c2)n(-c2cccnc2)n1	resazurin	>3.3 µM
CC1(C)NC(=O)Cn2c1nc(C(=O)NCc1ccc(F)cc1)c(O)c2=O	microscopy	>1 µM
NC(=O)c1cccn1S(=O)(=O)c1cc(Cl)ccc1[N+](=O)[O-]	MTT	52 µM
O=C1NCc2c1ccnc2-c1cc(-c2cncc(Cl)c2)n(-c2ccc(F)c(Cl)c2)n1	resazurin	>3.3 µM
C=CCOCn1c(Cc2cccc(Cc3c(CC)c(=O)[nH]c(=O)n3COCC=C)c2)c(CC)c(=O)[nH]c1=O	MTT	>100 µM
C(=N\Nc1nc(-c2ccccc2)cs1)/c1cccnc1	MTT	11.6 µM
C[C@H]1CC[C@]2(CC(=O)N(Cc3cccnc3)O2)[C@H]2CN1C(=O)c1c(O)c(=O)c(C(=O)NCc3c(F)cc(F)cc3F)cn12	luminescence	50 µM
CC(C)(C)OC(=O)N(CCCCCCN(Cc1ccccc1)C(=O)OC(C)(C)C)CCCCCC(=O)Nc1ccn([C@H]2CS[C@@H](CO)O2)c(=O)n1	-	10 µM
CC1=C(C(=O)Nc2cccc(Cl)c2Cl)C2=NN=C(N)C2C(=O)N1	MTT	19.8 µg/mL
Nc1ccn([C@H]2CS[C@@H](COC(=O)CCCCCNCCCCCNCc3ccccc3)O2)c(=O)n1	-	>50 µM
O=[N+]([O-])c1ccc(/C=N/Nc2nc(-c3ccc([N+](=O)[O-])cc3)cs2)cc1	MTT	73.58 µM
COc1cc([N+](=O)[O-])ccc1NC(=O)C1=C(C)NC(=O)C2C(N)=NN=C12	MTT	81.1 µg/mL
Oc1ccccc1/C=N/Nc1nc(-c2ccc(Cl)cc2)cs1	MTT	102 µM
S=C(NCCc1ccccc1)Nc1cnccn1	-	>390 µM
CCc1c(Cc2cccc(Cc3nc(SC)n(C)c(=O)c3CC)c2)nc(SC)nc1OC	MTT	80 µM
CCOC(=O)c1[nH]c2ccc(Cl)cc2c1S(=O)(=O)C1CC1	microscopy	>10 µM
O=C1NCc2c1ccnc2-c1cc(-c2cccc(OC(F)F)c2)n(-c2ccc(F)c(Cl)c2)n1	resazurin	>3.3 µM
Cc1cc(C)cc(S(=O)(=O)c2c(C(=O)N[C@H]3CCN(Cc4ccccc4F)C3)[nH]c3ccc(Cl)cc23)c1	MTT	215 µM
C=Cc1cc(N(CC)CC)nc(SCc2ccc(OC)cc2)n1	MTT	33 µM
CC(C)COC(=O)c1cccn1S(=O)(=O)c1cc(Cl)ccc1N	MTT	>200 µM
O=C1NCc2c1ccnc2-c1cc(-c2cccc(F)c2F)n(-c2ccc(F)c(Cl)c2)n1	resazurin	>3.3 µM
O=C1/C(=C\c2ccccc2)N(CCc2cccs2)C(=S)N1CCc1cccs1	MTT	59.38 µg/mL
CN(Cc1ccccc1)C(=O)c1cccn1S(=O)(=O)c1cc(Cl)ccc1[N+](=O)[O-]	MTT	17 µM
C#CCOCn1c(Cc2ccccc2)c(CO)c(=O)[nH]c1=O	MTT	>100 µM
CCc1c(Cc2cc(C)cc(C)c2)n(COCC#Cc2ccc(N)cc2)c(=O)[nH]c1=O	MTT	40 µM
CC1=C(C(=O)Nc2ccc(Cl)cc2C)C2=NN=C(N)C2C(=O)N1	MTT	60.4 µg/mL
O=C1NCc2c1cccc2-c1cc(-c2cc(F)cc(Cl)c2)n(-c2cccnc2)n1	resazurin	>3.3 µM
Nc1ccc(Cl)cc1S(=O)(=O)n1cccc1C(=O)OC1CCCC1	MTT	53.6 µM
CN1CCN(C(=O)C(=O)N(C)C2COCCn3c2nc(C(=O)NCc2ccc(F)cc2)c(O)c3=O)CC1	microscopy	>1 µM
C=C(C)COCn1c(Cc2ccccc2)c(CO)c(=O)[nH]c1=O	MTT	>100 µM
Cn1nccc1CN1CCn2c(nc(C(=O)NCc3ccc(F)cc3)c(O)c2=O)C1(C)C	microscopy	>1 µM
O=C1/C(=C\c2ccc(SC3=CC=C3)cc2)N(CCc2cccs2)C(=S)N1CCc1cccs1	MTT	>102 µg/mL
CCn1c(C)c(C(=O)OC)c(C(=O)OC)c1Cc1ccccc1	-	59 µM
Cc1cc(C)cc(S(=O)(=O)c2c(C(=O)NS(=O)(=O)c3ccccc3)[nH]c3ccc(Cl)cc23)c1	MTT	131 µM
N#Cc1ccc(-c2csc(N/N=C/c3ccccc3O)n2)cc1	MTT	104 µM
CN(C)c1ccc(/C=C2\C(=O)N(CCc3cccs3)C(=S)N2CCc2cccs2)cc1	MTT / turbidity	34.3 µg/mL
Nc1nc(N)c2ncn(C[C@H](CF)OCP(=O)(O)O)c2n1	-	>300 µM
O=C(OC1CCCC1)c1cccn1S(=O)(=O)c1cc(Cl)ccc1[N+](=O)[O-]	MTT	11 µM
S=C(NCCc1ccncc1)Nc1nccs1	-	113 µM
CCc1c(Cc2cccc(Cc3[nH]c(=O)[nH]c(=O)c3CC)c2)[nH]c(=O)[nH]c1=O	MTT	>100 µM
CCOC(=O)c1[nH]c2ccc(Cl)cc2c1SCCC1CC1	microscopy	>10 µM
O=C(NCc1ccc(F)cc1)c1nc2n(c(=O)c1O)C(=O)N(Cc1ccccc1)CC2	microscopy	>1 µM
C[C@H]1CC[C@@]2(CN(C)C(=O)O2)[C@H]2CN1C(=O)c1c(O)c(=O)c(C(=O)NCc3c(F)cc(F)cc3F)cn12	luminescence	50 µM

For reference, 12 entries again:

{"structure": "O=[N+]([O-])c1ccc(/C=N/Nc2nc(-c3ccc([N+](=O)[O-])cc3)cs2)cc1", "read by": "MTT", "value": "73.58 µM"}
{"structure": "CCc1c(Cc2cc(C)cc(C)c2)n(COCc2cn(Cc3c(F)cccc3F)nn2)c(=O)[nH]c1=O", "read by": "MTT", "value": "54 µM"}
{"structure": "O=C(CCCCCNCCCCCCNCc1ccccc1)Nc1ccn([C@H]2CS[C@@H](CO)O2)c(=O)n1", "value": "10 µM"}
{"structure": "Oc1ccccc1/C=N/Nc1nc(-c2ccc(Cl)cc2)cs1", "read by": "MTT", "value": "102 µM"}
{"structure": "N#Cc1ccc(-c2csc(N/N=C/c3ccccc3O)n2)cc1", "read by": "MTT", "value": "104 µM"}
{"structure": "O=C(NCc1ccc(F)cc1)c1nc2n(c(=O)c1O)C(=O)N(Cc1ccccc1)CC2", "read by": "microscopy", "value": ">1 µM"}
{"structure": "C[C@H]1CC[C@@]2(ON=C(CF)[C@@H]2O)[C@H]2CN1C(=O)c1c(O)c(=O)c(C(=O)NCc3c(F)cc(F)cc3F)cn12", "read by": "luminescence", "value": "50 µM"}
{"structure": "Cc1cc(C)cc(S(=O)(=O)c2c(C(=O)N[C@@H]3CCN(CC(N)=O)C3)[nH]c3ccc(Cl)cc23)c1", "read by": "MTT", "value": "31.02 µM"}
{"structure": "CCc1c(Cc2cc(C)cc(C)c2)n(COCC#Cc2ccc(N)cc2)c(=O)[nH]c1=O", "read by": "MTT", "value": "40 µM"}
{"structure": "CC1=C(C(=O)Nc2ccccc2Cl)C2=NN=C(N)C2C(=O)N1", "read by": "MTT", "value": "42.6 µg/mL"}
{"structure": "CCOC(=O)C(CC)C(=O)Cc1cccc(Cc2[nH]c(=O)c(CC)c(O)c2CC)c1", "read by": "MTT", "value": "100 µM"}
{"structure": "Nc1ncc2ncn(C[C@@H](CF)OCP(=O)(O)O)c2n1", "value": ">300 µM"}